Pooled drug test results. Numbers come from NIAID ChemDB, via PubChem.

Common to all: whole-cell or culture tests; agent: Hepatitis C virus; cells: Huh7; measure: EC50

Two numbers with a dash give a range or band. Blank or dashed fields: not listed here. ECn is the concentration giving n% inhibition of infection, replication or growth. Conditions beyond the fields shown may differ between rows.

compound,strain or isolate,method,conditions,result
O=C(NC1(C(=O)Nc2ccccc2)CCCC1)c1ccc2c(C3CCCCC3)c3n(c2c1)CCOc1ncccc1-3,,replicon,,0.01–1 µM
CNC(=O)c1c(-c2ccc(F)cc2)oc2cc(N(C)S(C)(=O)=O)c(OCc3cc(C)on3)cc12,,replicon,,<1 µM
CC(C)(C)OC(=O)N1CCn2c(c(C3CCCCC3)c3ccc(C(=O)NS(=O)(=O)C4CC4)cc32)-c2ccccc21,,replicon,,0.01–1 µM
C=C[C@@H]1C[C@]1(NC(=O)[C@@H]1C[C@@H](Oc2nccc3ccccc23)CN1C(=O)OC(C)(C)C)C(=O)NS(=O)(=O)C1CC1,BMS,replicon,,0.1–1 µM
CNC(=O)c1c(-c2ccc(F)cc2)oc2cc(-c3c(C)noc3C)c(OCc3nnnn3C)cc12,,replicon,,<1 µM
COc1ccc(-c2cnc3nc(N)nc(N4CCN(C(=O)NCc5ccc(F)cc5)CC4)c3n2)cc1OC,HCV replicon,replicon,,<0.3 µM
CNC(=O)c1c(-c2occc2C)oc2ccc(OC(C)C)cc12,,replicon,,<30 µM
COC(=O)c1ccc2c(C3CCCCC3)c3n(c2c1)C[C@@H](O)[C@@H](O)c1ccccc1-3,,replicon,,1–10 µM
OCc1nnc(-c2ccc(N3CCC(Oc4cc(F)ccc4Br)CC3)nn2)o1,GT1b,PCR,50% human serum,>40 µM
CNC(=O)c1c(-c2ccc(F)cc2)oc2cc(C3CNC(=O)O3)c(OC)cc12,,replicon,,<10 µM
C=CCC(NC(=O)[C@H]1C[C@@H](Oc2cc(C(F)(F)F)nc3c(C(F)(F)F)cccc23)CN1C(=O)[C@@H](NC(=O)OC(C)(C)C)C(C)(C)C)C(=O)NS(=O)(=O)C1CC1,BMS,replicon,,0.1–1 µM
OCc1ccn2cc(-c3cn(Cc4cc(Cl)c(Cl)c(Cl)c4)nn3)nc2c1,GT1b,PCR,,0.013 µM
C=CC[C@](C)(NC(=O)[C@H]1C[C@@H](Oc2nc(Br)c(O)c3ccccc23)CN1C(=O)[C@@H](NC(=O)OC(C)(C)C)C(C)(C)C)C(=O)NS(=O)(=O)C1CC1,BMS,replicon,,0.1–1 µM
CC(C)CC[C@@]1(C)C(=O)C(C2=NS(=O)(=O)c3cc(NS(C)(=O)=O)ccc3N2)=C(O)c2ccccc21,1b,luciferase,,0.0037 µM
COc1ccc(-c2cnc3nc(N)nc(N4CCN(CCc5ccccc5)CC4)c3n2)cc1OC,HCV replicon,replicon,,<0.3 µM
N#CC1=Cn2c(c(C3CCCCC3)c3ccc(C(=O)O)cc32)-c2ccccc2C1,,replicon,,1–10 µM
C=CC[C@](C)(NC(=O)[C@H]1C[C@@H](Oc2ccnc3ccc(F)cc23)CN1C(=O)[C@@H](NC(=O)OC(C)(C)C)C(C)(C)C)C(=O)NS(=O)(=O)C1CC1,BMS,replicon,,<0.1 µM
COc1ccc(-c2cnc3nc(N)nc(N4CCN(C(C)c5ccccc5)CC4)c3n2)cc1OC,HCV replicon,replicon,,<0.3 µM
CNC(=O)c1c(-c2ccc(F)cc2)oc2cc(NC(=O)N3CCNCC3)c(OC(C)C)cc12,,replicon,,<10 µM
CCOC(=O)/C=C/c1ccc(NC(=O)C2(NC(=O)c3ccc4c(C5CCCCC5)c5n(c4c3)CCNc3ccccc3-5)CCCC2)cc1,,replicon,,0.01–1 µM
CNC(=O)c1c(-c2ccc(F)c(O)c2)oc2ccc(OC(C)C)cc12,,replicon,,<30 µM
COc1ccc(-c2cnc3nc(N)nc(N4CCN(C(=O)Nc5ccc(F)cc5)CC4)c3n2)cc1OC,HCV replicon,replicon,,<0.3 µM
CNC(=O)c1c(-c2ccc(F)cc2)oc2cc(-c3cc(C4CC4)no3)c(OC(C)C)cc12,,replicon,,<10 µM
O=C(O)C1=Cc2ccccc2-c2c(C3CCCCC3)c3ccc(C(=O)O)cc3n2C1,,replicon,,>10 µM
CNC(=O)c1c(-c2ccc(F)cc2)oc2cc(Cl)c(OC)cc12,,replicon,,<1 µM
CCCCc1ccc(C(=O)N2CCN(c3nc(N)nc4ncc(-c5ccc(OC)c(OC)c5)nc34)CC2)cc1,HCV replicon,replicon,,<0.3 µM
CNC(=O)c1c(-c2ccc(F)cc2)oc2cc(N(C3CCCC3)S(C)(=O)=O)c(OC(C)C)cc12,,replicon,,<1 µM
C=CC[C@](C)(NC(=O)[C@H]1C[C@@H](Oc2nc3c(c4ccccc24)OCOC3)CN1C(=O)[C@@H](NC(=O)OC(C)(C)C)C(C)(C)C)C(=O)NS(=O)(=O)C1CC1,BMS,replicon,,<0.1 µM
COc1ccc(-c2nc3ccc(NCc4ccc(Cl)c(C(F)(F)F)c4)cc3n(CCNC(C)=O)c2=O)cc1,GT1a,PCR,,0.0058 µM
C=C[C@H]1C[C@@]1(NC(=O)[C@@H]1C[C@@H](Oc2cc(C)nc3nc(C(F)(F)F)ccc23)CN1C(=O)[C@@H](NC(=O)OC(C)(C)C)C(C)(C)C)C(=O)NS(=O)(=O)C1CC1,BMS,replicon,,1–10 µM
CCCCCOc1ccc(C(=O)N2CCN(c3nc(N)nc4ncc(-c5ccc(OC)c(OC)c5)nc34)CC2)cc1,HCV replicon,replicon,,<0.3 µM
C=CC[C@](C)(NC(=O)[C@H]1C[C@@H](Oc2nccc3c(C(=O)c4cccs4)c(OCC)ccc23)CN1C(=O)[C@@H](NC(=O)OC(C)(C)C)C(C)(C)C)C(=O)NS(=O)(=O)C1CC1,BMS,replicon,,0.1–1 µM
COc1ccc(-c2cnc3nc(N)nc(N4CCN(C(=O)Nc5cccs5)CC4)c3n2)cc1OC,HCV replicon,replicon,,<0.3 µM
C=CC[C@](C)(NC(=O)[C@H]1C[C@@H](Oc2nc3c(c4ccccc24)OCC3)CN1C(=O)[C@@H](NC(=O)OC(C)(C)C)C(C)(C)C)C(=O)NS(=O)(=O)C1CC1,BMS,replicon,,<0.1 µM
COC(=O)c1ccc2c(C3CCCCC3)c3n(c2c1)CC(CO)Cc1ccccc1-3,,replicon,,0.01–1 µM
COc1ccc(-c2cnc3nc(N)nc(N4CCN(C(=O)COc5ccccc5)CC4)c3n2)cc1OC,HCV replicon,replicon,,<0.3 µM
C=CC[C@](C)(NC(=O)[C@H]1C[C@@H](Oc2nc3c(c4ccccc24)CCC3)CN1C(=O)[C@@H](NC(=O)OC(C)(C)C)C(C)(C)C)C(=O)NS(=O)(=O)C1CC1,BMS,replicon,,<0.1 µM

Repeating the final 2 entries:

compound | strain or isolate | method | conditions | result
COc1ccc(-c2cnc3nc(N)nc(N4CCN(C(=O)COc5ccccc5)CC4)c3n2)cc1OC | HCV replicon | replicon |  | <0.3 µM
C=CC[C@](C)(NC(=O)[C@H]1C[C@@H](Oc2nc3c(c4ccccc24)CCC3)CN1C(=O)[C@@H](NC(=O)OC(C)(C)C)C(C)(C)C)C(=O)NS(=O)(=O)C1CC1 | BMS | replicon |  | <0.1 µM